We go through three substances from PMC10517994, “Structural basis for calcium-stimulating pore formation of Vibrio α-hemolysin” (2023).

Experiment [1] has as its target mature VcαHL H415A (Vibrio campbellii). Nature of the experiment: negative-stain TEM.
The target of experiment [2] is mature VcαHL H422A (Vibrio campbellii). The experiment can be described thus: negative-stain TEM.
Experiment [3] has as its target mature Vibrio campbellii α-hemolysin (mature VcαHL), wild type (Vibrio campbellii). Nature of the experiment: cryo-EM structure.
Experiment [4] has the same target. Nature of the experiment: negative-stain TEM.

“And” between values parts separate entries of the source, which are not always exact repeats. Equal values may be shown once.

mature VcαHL H415A (natural protein) showed a stoichiometry N in experiment [1] of 7. Regarding mature VcαHL H422A (natural protein), the stoichiometry N in experiment [2] was found to be 7. Take “mature Vibrio campbellii α-hemolysin (mature VcαHL), wild type (natural protein)”: the stoichiometry N in experiment [3] is 7; in experiment [4], 7 and 3 and 6.
